The target in assay [1] is T1, SARS-CoV-2 helicase (Severe acute respiratory syndrome coronavirus 2, UniProt P0DTD1). To be noted: read-out: IC50 ATPase activity; based on metal content.
Assay [2] concerns the target T1, SARS-CoV-2 helicase. The settings on record: read-out: IC50 DNA-unwinding activity; based on metal content.

Where two headings read alike, the source gives them in different places.

The term IC50 denotes the concentration needed to halve the response being measured.

Turning to Bi(TPP) (TPP: tetraphenylporphyrinate), the IC50 in assay [1] was determined as 2.39 ± 0.02 µM; in assay [2] it was 3.69 ± 0.26 µM.

These data come from patent publication US20230218663A1, “COMPOSITIONS AND METHODS FOR TREATING A SARS-COV-2 INFECTION” (priority 2020, published 2023).
